Compound potency records, mixed from different reports. Data source: NIAID ChemDB in PubChem.

Shared fields: whole-cell or culture tests; agent: Human cytomegalovirus; read-out: EC50

Two numbers with a dash give a range or band.

SMILES | method | strain | cell line | result
C=C1[C@H](CO)[C@@H](O)C[C@@H]1n1cnc2c(=O)[nH]c(N)nc21 |  | AD169 | HFF | 15 µM
Nc1ncnc2c1ncn2[C@@H]1C[C@H](c2ccccc2)[C@@H](O)[C@H]1O | plaque count | AD-169 (20 PFU) | HEL | 18.1 µg/mL
C=C(/C=C/P(=O)(O)O)Cn1cnc2c(=O)[nH]c(N)nc21 | cytopathic effect | AD169 | MRC-5 | >250 µM
N#Cc1cn(COCCO)c2ncnc(N)c12 | plaque count |  | HFF | >100 µM
NC1=Nc2c(ncn2CCC/C=C/P(=O)(O)O)C(=O)C1 | cytopathic effect |  | MRC-5 | 48 µM
COc1nc(N)nc2c1ncn2C=C1CC1CO | plaque count | AD169 | HFF | 5.3 µM
N#Cc1cn([C@@H]2O[C@H](CO)[C@@H](O)[C@@H]2I)c2ncnc(N)c12 | virus yield | TOWNE | HFF | <20 µM
Nc1ncnc2c1c(Br)cn2[C@H]1C[C@H](O)[C@@H](CO)O1 | plaque count |  | HFF | 6 µM
Nc1ncnc2c1ncn2CCOCP(=O)(O)O | plaque count | AD169 | MRC-5 | 117 µM
N#Cc1cn([C@@H]2O[C@H](CO)[C@@H](O)[C@@H]2N)c2ncnc(N)c12 | virus yield | TOWNE | HFF | <110 µM
O=c1[nH]c(=S)n([C@@H]2O[C@H](CO)[C@@H](O)[C@@H]2O)cc1Br | plaque count | AD169 | MRC-5 | >295 µM
Nc1[nH]c(=O)nc2c1ncn2/C=C1/C[C@@H]1CO | plaque count | TOWNE | HFF | >100 µM
Nc1nccc2c1ncn2[C@@H]1C=C(CO)[C@@H](O)[C@H]1O | cytopathic effect | AD-169 (100 PFU) | HEL | 0.27 µg/mL
OC[C@H]1O[C@@H](n2c(Cl)nc3cc(Cl)c(Cl)cc32)[C@H](O)[C@@H]1O | plaque count | TOWNE | KB | 2.9 µM
Cc1cn([C@H]2C[C@H](O)[C@@H](CO)O2)c(=O)[nH]c1=O | plaque count | AD169 | MRC-5 | >385 µM
Nc1ncnc2c1ncn2[C@@H]1CC(F)(F)[C@@H](O)[C@H]1O | plaque count |  | HFF | 6.2 µM
N#Cc1cn([C@@H]2O[C@H](CO)[C@@H](O)[C@@H]2Br)c2ncnc(N)c12 | virus yield | TOWNE | HFF | <90 µM
Nc1nc2c(ncn2/C=C2/C[C@@H]2CO)c(=O)[nH]1 | plaque count | AD169 | HFF | 2.6 µM
O=c1[nH]c(=S)n([C@H]2C[C@H](O)[C@@H](CO)O2)cc1F | plaque count | AD169 | MRC-5 | >383 µM
COC(=O)[C@H](C)NP(=O)(OC[C@H]1C/C1=C/n1cnc2c(=O)[nH]c(N)nc21)Oc1ccccc1 | plaque count | AD169 | HFF | 25 µM
NC(=O)c1cn([C@H]2C[C@H](O)[C@@H](CO)O2)c2ncnc(N)c12 | plaque count | AD169 | MRC-5 | 0.6 µM
CC(C)Nc1nc2cc(Cl)c(Cl)cc2n1[C@@H]1C[C@@H](O)[C@H](CO)O1 | hybridisation | AD169 | MRC-5 | 0.17 µM
Nc1nc(F)nc2c1ncn2/C=C1\CC1CO | plaque count | TOWNE | HFF | >100 µM
O=c1c(-c2ccc(O)cc2)coc2cc(O)cc(O)c12 | plaque count | A6245 | HEF | 32.4 µM
NC(=O)c1cn(COC(CO)CO)c2ncnc(N)c12 | plaque count |  | HFF | >100 µM
Nc1ncnc2c1ncn2/C=C1/C[C@H]1CO | plaque count | TOWNE | HFF | 2.5 µM
Nc1nc2c(ncn2[C@H]2C=C[C@@H](CO)CC2)c(=O)[nH]1 | plaque count |  |  | 1–10 µM
OCC1OC(n2cnc3nc4cc(Cl)c(Cl)cc4nc32)C(O)C1O | plaque count | TOWNE | KB | 32 µM
N=C(N)c1cn([C@H]2C[C@H](O)[C@@H](CO)O2)c2ncnc(N)c12 | plaque count | AD169 | MRC-5 | 5 µM
C[C@@H](O)C1=C[C@@H](n2cnc3c(N)ncnc32)[C@H](O)[C@@H]1O | plaque count | DAVIS (20 PFU) | HEL | 0.35 µg/mL
N/C(=N/O)c1cn([C@@H]2O[C@H](CO)[C@@H](O)[C@@H]2O)c2ncnc(N)c12 | plaque count | AD169 | MRC-5 | 22 µM
OC[C@H]1O[C@@H](n2cnc3cc(Cl)c(Cl)cc32)[C@H](O)[C@@H]1O |  |  |  | 42 µM
COC(=O)[C@]1(O)C[C@@H]2O[C@@]1(C)n1c3ccccc3c3c4c(c5c6ccccc6n2c5c31)C(=O)NC4 | plaque count | AD169 | HEF | 0.04 µM
N#Cc1cn([C@@H]2O[C@H](CO)[C@@H](O)[C@H]2O)c2ncnc(N)c12 | plaque count |  | HFF | 0.05 µM
Nc1nc2c(ncn2[C@@H]2C=C[C@H](CO)CC2)c(=O)[nH]1 | plaque count | U 9070 | HEL | 0.13 µg/mL
CC(C)Nc1nc2cc(Cl)c(Cl)cc2n1[C@H]1O[C@@H](CO)[C@H](O)[C@@H]1O | hybridisation | AD169 | MRC-5 | 0.12 µM
Nc1nc2c(ncn2COC(CO)CO)c(=O)[nH]1 | plaque count | TOWNE | HFF | 7.4 µM
O=C1NCc2c1c1c3ccccc3[nH]c1c1[nH]c3ccccc3c21 | plaque count | AD169 | HEF | 0.32 µM
COC(=O)[C@H](C)NP(=O)(OC[C@H]1C/C1=C/n1cnc2c(OC)nc(N)nc21)Oc1ccccc1 | plaque count | TOWNE | HFF | 0.16 µM
Nc1nc(=S)n([C@H]2C[C@H](O)[C@@H](CO)O2)cc1I | plaque count | AD169 | MRC-5 | >283 µM
Nc1ncnc2c1c(Cl)cn2[C@@H]1O[C@H](CO)[C@@H](O)[C@H]1O | plaque count |  | HFF | 4 µM
Nc1ccn(C[C@@H](CO)OCP(=O)(O)O)c(=O)n1 |  |  | NHDF | 0.5 µM
Cc1cc(C)c(Nc2cc(S(=O)(=O)O)c(N)c3c2C(=O)c2ccccc2C3=O)c(C)c1 | luciferase |  | MRC-5 | 6.3 µM
NC(=O)c1cn([C@H]2C=C[C@@H](CO)O2)c2ncnc(N)c12 | plaque count |  | HFF | >100 µM
Nc1ccn([C@H]2CC[C@@H](CO)O2)c(=O)n1 |  |  | NHDF | >100 µM
NC(=O)c1cn([C@@H]2O[C@H](CO)[C@@H](O)[C@H]2O)c2ncnc(N)c12 | plaque count |  | HFF | 0.03 µM
CC(C)COC(=O)C(O)Cn1cnc2c(N)ncnc21 | cytopathic effect | DAVIS (100 PFU) | HEL | 16 µg/mL
COc1cc(NC(=O)Nc2cccc(CNC(=O)O[C@H]3CCOC3)c2)ccc1-c1cnco1 | plaque count | TOWNE | HFF | 0.8 µM
O=C(NCCc1c[nH]c2ccccc12)C1=Cc2ccncc2CC1 | plaque count | AD169 | HS68 | 0.09 µM
N#Cc1cn([C@H]2CC[C@@H](CO)O2)c2ncnc(N)c12 | plaque count |  | HFF | 18 µM
Nc1nc(NC2CC2)c2ncn(C=C3CC3CO)c2n1 | virus yield | TOWNE | HFF | 0.4 µM
Nc1nc(Cl)c2ncn(/C=C3/C[C@@H]3CO)c2n1 | plaque count | AD169 | HFF | 2.9 µM
NC1=Nc2c(ncn2CCCCCP(=O)(O)O)C(=O)C1 | cytopathic effect |  | MRC-5 | >250 µM
O=c1[nH]c(=S)n([C@@H]2O[C@H](CO)[C@@H](O)[C@@H]2O)cc1Cl | plaque count | AD169 | MRC-5 | >340 µM

Repeating the final 6 entries:

O=C(NCCc1c[nH]c2ccccc12)C1=Cc2ccncc2CC1 ; method: plaque count ; strain: AD169 ; cell line: HS68 ; result: 0.09 µM
N#Cc1cn([C@H]2CC[C@@H](CO)O2)c2ncnc(N)c12 ; method: plaque count ; cell line: HFF ; result: 18 µM
Nc1nc(NC2CC2)c2ncn(C=C3CC3CO)c2n1 ; method: virus yield ; strain: TOWNE ; cell line: HFF ; result: 0.4 µM
Nc1nc(Cl)c2ncn(/C=C3/C[C@@H]3CO)c2n1 ; method: plaque count ; strain: AD169 ; cell line: HFF ; result: 2.9 µM
NC1=Nc2c(ncn2CCCCCP(=O)(O)O)C(=O)C1 ; method: cytopathic effect ; cell line: MRC-5 ; result: >250 µM
O=c1[nH]c(=S)n([C@@H]2O[C@H](CO)[C@@H](O)[C@@H]2O)cc1Cl ; method: plaque count ; strain: AD169 ; cell line: MRC-5 ; result: >340 µM

ECn is the concentration giving n% inhibition of infection, replication or growth. Lines come from different laboratories, so protocols vary. Blank or dashed fields: not listed here.